Measured values from PMC11156646.
The exact form of at least one protein or probe is not confirmed. For some assays here: Weaker means in comparison with the reference protein, sequence or condition of that experiment. For some assays here: At least one verdict rests on a figure or table, not on a statement of the authors.

Key:
[1] = tested on: RNAP core enzyme (alpha2, beta, beta', omega, delta, epsilon) + sigmaA; assay: EMSA; settings: RPo, less than delta1.1; 50 mM Tris-HCl pH 8.0, 0.1 M KCl, 10 mM MgCl2; EMSA 40 nM DNA, 100 nM holoenzyme, 37 C 10 min; recombinant protein; protein details: 10xHis after rpoC
[2] = tested on: RNAP core enzyme (alpha2, beta, beta', omega, delta, epsilon) + sigmaA delta1.1; assay: EMSA; settings: RPo increased vs full-length sigmaA; 50 mM Tris-HCl pH 8.0, 0.1 M KCl, 10 mM MgCl2; EMSA 40 nM DNA, 100 nM holoenzyme, 37 C 10 min; recombinant protein; protein details: 10xHis after rpoC
[3] = tested on: sigmaA delta1.1 (Staphylococcus aureus N315); assay: fluorescence polarization; settings: free sigma, no RNAP, 0-10 uM, better than full-length; 50 mM Tris-HCl pH 8.0, 0.1 M KCl, 10 mM MgCl2; FP 0.1 uM DNA, 25 C 10 min; recombinant protein; label: 3' 6-FAM on template strand
[4] = target: sigmaA (Staphylococcus aureus N315) (UniProt Q99TT5); assay: fluorescence polarization; settings: free sigma, no RNAP, 0-10 uM, weaker than delta1.1; 50 mM Tris-HCl pH 8.0, 0.1 M KCl, 10 mM MgCl2; FP 0.1 uM DNA, 25 C 10 min; recombinant protein; label: 3' 6-FAM on template strand
[5] = tested on: RNAP core enzyme (alpha2, beta, beta', omega, delta, epsilon) + sigmaB; assay: EMSA; settings: RPo; 50 mM Tris-HCl pH 8.0, 0.1 M KCl, 10 mM MgCl2; EMSA 40 nM DNA, 100 nM holoenzyme, 37 C 10 min; recombinant protein; protein details: 10xHis after rpoC

“AAAATAATTAAAAATAATTCTTGACTTACAAAAACTTACGAGTTATAATTAAATCATAAATTTGAGAGAGGAGTTTAAATATGGCTGGTTCTCGATCGAGGAGTTTAAATATGGCTGGTTCTCGCGAGAATTCCGAATAGCCATCCCAATCGATATCGAGGAGTTTAAATATGGCTGGTTCTCGCGAGAATTCCGAATAGCCATCCCAATCGATATCGAGGAGTTTAAATATGGCTGGTTCTCGCGAGAATTCCGAATAGCCATCCCAATCGATATCGAGGAGTTTAAATATGGCTGGTTCTCGCGAGAATTCCGAATAGCCATCCCAATCGATCGAGAATTCCGAATAGCCATCCCAATCGAACAGGCCTGCTGGTAATCGCAGGCCTTTTTATTTGGATCCCCGGGTAGAATTCTCTCTC (double strand) [rrnB P1 EMSA fragment (ribogreen template)]”: binds [1]; binds [2].
“AAAATAATTAAAAATAATTCTTGACATACAAAAACTTACGAGTTATAATTAAATCTTGTAAGTGACAAACG (double strand) [rrnB P1 FP scaffold]”: binds [3]; binds more weakly [4].
“GTTATGAATTTAATGAATGAGTTTAAAGCCCATGTAAAAGGGGTATCAGTACTTATAAATTTGAGAGAGGAGTTTAAATATGGCTGGTTCTCGATCGAGGAGTTTAAATATGGCTGGTTCTCGCGAGAATTCCGAATAGCCATCCCAATCGATATCGAGGAGTTTAAATATGGCTGGTTCTCGCGAGAATTCCGAATAGCCATCCCAATCGATATCGAGGAGTTTAAATATGGCTGGTTCTCGCGAGAATTCCGAATAGCCATCCCAATCGATATCGAGGAGTTTAAATATGGCTGGTTCTCGCGAGAATTCCGAATAGCCATCCCAATCGATCGAGAATTCCGAATAGCCATCCCAATCGAACAGGCCTGCTGGTAATCGCAGGCCTTTTTATTTGGATCCCCGGGTAGAATTCTCTCTC (double strand) [PyabJ EMSA fragment (ribogreen template)]”: binds [5].
